Test results published in paper PMC11385703 (Structure(London, England:1993), 2024).

B1: IgG: TPL0039_05_A03-YTE (antibody, V domains shown)
VH: QVQLVESGGGLAKPGRSLRLSCAVSGFTFSSYGMHWVRQAPGKGLEWVAVISYDGSNKYYADSVKGRFTISRDNSKNTLYLQMNSLRAEDTAVYYCASTLQQLDAFDIWGQGTMVTVSS
VL: NFMLTQPHSVSESPGKTITISCTRSSGSIASNYVQWYQQRPGSVPTPVIYEDDRRPSGVPDRFSGSIDSSSNSASLTISGLKTEDEADYYCQSYDSSSVVFGGGTKITVL
notes: copies: 2 + 2
B2: IgG: 2554_01_D11-YTE (antibody, V domains shown)
VH: QVQLVQSGAEVKKPGSSVKVSCKASGGTFSSYAISWVRQAPGQGLEWMGGIIPIFGTANYAQKFQGRVTITADESTSTAYMELRSLRSDDTAVYYCARDNLGYCSGGSCYSDYYYYYMDVWGQGTLVTVSS
VL: NFMLTQPRSVSESPGKTVTISCTRSSGSIGSDYVHWYQQRPGSSPTTVIYEDNQRPSGVPDRFSGSIDSSSNSASLTISGLKTEDEADYYCQSYDRSNHEVVFGGGTKLTVL
B3: IgG: 2554_01_D11-WT (antibody, V domains shown)
VH: B2 VH
VL: B2 VL
B4: IgG: 2555_01_A01-YTE (antibody, V domains shown)
VH: B2 VH
VL: SYELTQPPSVSVAPGRTATITCEGDNIGQQIVHWYQQKPGQAPVAVISSDSDRPSGIPERFSGSNSGNTATLTISRVEAGDEADYYCQVWDSGSDHVVFGGGTKVTVL
notes: also called IgG1 A01; source: CHO cells, transiently expressed, purified; copies: 2 + 2

Experiments:
biotinylated myotoxin II = biotinylated myotoxin II (Bothrops asper, UniProt P24605, biotin (EZ-Link NHS-PEG4-Biotin, 1:1.25 toxin:reagent molar ratio)); test: BLI; conditions: both partners purified
[1] = target: biotinylated α-cobratoxin (Naja kaouthia, UniProt P01391, biotin (EZ-Link NHS-PEG4-Biotin, 1:1.25 toxin:reagent molar ratio))

| Binder | Kd (biotinylated myotoxin II) [pM] | koff (biotinylated myotoxin II) [s⁻¹] | binding result [1] |
| --- | --- | --- | --- |
| B1 | < 1 | < 1e-07 | – |
| B2 | – | – | binds |
| B3 | – | – | binds |
| B4 | – | – | binds |
